A mixed list of measured activities; the numbers were collected in NIAID ChemDB.

Common to all: enzyme or target tests; species: HIV-1; target: Protease; read-out: IC50

Rows are shuffled and stem from different studies.

structure,strain,method,value
CC(C)(C)NC(=O)[C@@H]1CCCN1C(=O)[C@@H](O)[C@H](Cc1ccccc1)NC(=O)[C@H](CC(N)=O)NC(=O)OCc1cccc2ccccc12,,,0.024 µM
CC(C)[C@H](NC(=O)c1ccc2ccccc2n1)C(=O)N[C@H](CCN1CC[C@@H](SCc2ccccn2)C[C@H]1C(=O)NC(C)(C)C)Cc1ccccc1,,,≤0.0019 µM
C=CCc1ccc(O)c(-c2cc(C(OCC)C(C)O)ccc2O)c1,,FRET,200 µM
CC(C)[C@H](NC(=O)CNS(C)(=O)=O)C(=O)N[C@@H](Cc1ccccc1)C(=O)C(F)(F)CCc1ccccc1,,,0.0022 µM
CC1(C)CC[C@]2(C(=O)O)CCC3=C(CCC4[C@@]5(C)C[C@H](O)[C@H](O)[C@@](C)(C(=O)O)C5CC[C@@]34C)C2C1,,substrate cleavage / fluorescence,89 µg/mL
CC(=O)C[C@H](NC(C)=O)C(=O)N[C@@H](Cc1ccccc1)[C@H](O)CN1C[C@H]2CCCC[C@H]2C[C@H]1C(=O)NC(C)(C)C,,,0.08 µM
O=c1oc2ccccc2c(O)c1Cc1c(O)c2ccccc2oc1=O,,substrate cleavage / HPLC,>50 µM
CC(C)[C@H](NC(=O)OCCN1CCOCC1)C(=O)N[C@@H](Cc1ccccc1)[C@@H](O)[C@H](Cc1ccccc1)NC(=O)[C@@H](NC(=O)OCc1ccccc1)C(C)C,,fluorescence,>0.005 µM
CC(C)[C@H](NC(=O)OC(C)(C)C)C(=O)N[C@@H](Cc1ccc(OCc2ccccc2)cc1)C(=O)C(F)(F)C(=O)NCc1ccccc1,,HPLC,1 µM
CC(C)[C@H](NC(=O)OCc1ccccc1)C(=O)N[C@@H](Cc1ccccc1)[C@H](O)[C@@H](CO)[C@H](Cc1ccccc1)NC(=O)[C@@H](NC(=O)OCc1ccccc1)C(C)C,,,0.017 µM
CC(=O)CC(c1ccccc1)c1c(O)c2ccc(C)c(C)c2oc1=O,,,1.9 µM
CC(C)=CCC1=C(O)[C@@](O)(CC=C(C)C)C(=O)C(C(=O)CC(C)C)=C1O,,substrate cleavage / HPLC,>50 µM
CC(C)(C)C[C@H](NC(=O)OCc1ccccc1)C(=O)N[C@@H](Cc1ccccc1)[C@@H](CO)[C@H](O)[C@H](Cc1ccccc1)NC(=O)[C@@H](NC(=O)OCc1ccccc1)C(C)(C)C,,,0.014 µM
O=c1c(O)c(-c2ccccc2O)oc2ccccc12,,fluorescence,12 µM
O=C(O)C(O)(c1ccccc1)C1(O)CCCCC1,,substrate cleavage / HPLC,>50 µM
CC(C)(C)NC(=O)[C@@H]1C[C@@H]2CCCC[C@@H]2CN1C[C@@H](O)[C@H](Cc1ccccc1)NC(=O)[C@@H](NC(=O)c1ccc2ccccc2n1)C(C)(C)S(C)(=O)=O,,,0.0005 µM
O=c1c(O)c(-c2ccc(O)cc2)oc2cc(O)cc(O)c12,,,2 µg/mL
CC(C)C(NC(=O)[C@@H](NC(=O)OCc1ccccc1)C(C)C)C(F)(F)C(O)C(CC1CCCCC1)NC(=O)[C@@H](NC(=O)OCc1ccccc1)C(C)C,,fluorescence,<0.0025 µM
CC(=O)C(Cc1c(O)c2cccc(-c3ccccc3)c2oc1=O)c1ccccc1,,,15 µM
CC(C)(C)NC(=O)[C@@H]1CCCCN1C(=O)[C@@H](O)[C@H](Cc1ccccc1)NC(=O)[C@H](CC(N)=O)NC(=O)OCc1ccccc1,,,0.45 µM
CC(=O)C(Cc1c(O)c2cccc(C)c2oc1=O)c1ccccc1,,,22 µM
NC(=O)C[C@H](NC(=O)OCc1ccccc1)C(=O)NC(Cc1ccccc1)C(O)C(Cc1ccccc1)NC(=O)[C@H](CC(N)=O)NC(=O)OCc1ccccc1,,fluorescence,0.91 µM
CC(C)[C@H](NC(=O)COc1ccccc1)C(=O)N[C@@H](Cc1ccccc1)[C@H](O)[C@H]1O[C@@H]1CNC(=O)COc1ccccc1,,fluorescence,39 µM
CC(C)[C@H](NC(=O)OCc1ccncc1)C(=O)N[C@@H](Cc1ccccc1)[C@@H](O)[C@H](O)[C@H](Cc1ccccc1)NC(=O)[C@@H](NC(=O)OCc1ccncc1)C(C)C,,fluorescence,<0.005 µM
CC(C)(C)NC(=O)[C@H]1N(C(=O)[C@@H](O)[C@H](Cc2ccccc2)NC(=O)[C@H](CC(N)=O)NC(=O)OCc2ccccc2)CCC1(C)C,,,0.024 µM
[Cl][Au-]([Cl])([Cl])[Cl].[Na+],SF2,fluorescence,14.4 µM
C[C@H]1[C@H](C)CC[C@]2(CO)CC[C@]3(C)C(=CC[C@@H]4[C@@]5(C)CC[C@H](O)C(C)(C)[C@@H]5CC[C@]43C)[C@H]12,,HPLC,5.5 µM
NC(=O)C[C@H](NC(=O)OCc1ccccc1)C(=O)N[C@@H](Cc1ccccc1)C(=O)C(F)(F)CCc1ccccc1,,,0.021 µM
CC(C)(C)NC(=O)[C@@H]1C[C@@H]2CCCC[C@@H]2CN1C[C@@H](O)[C@H](Cc1ccccc1)NC(=O)[C@@H](N)C(C)(C)S(C)(=O)=O,,,0.0086 µM
CC(=O)C(Cc1c(O)c2cc(C)ccc2oc1=O)c1ccccc1,,,160 µM
O=c1c(O)c(-c2ccc(O)c(O)c2)oc2cc(O)ccc12,,fluorescence,50 µM
[O]=[V](=[O])[O-],SF2,fluorescence,7.6 µM
Cc1cccc(C)c1OCC(=O)N[C@H](CCN1CC[C@@H](Sc2ncccn2)C[C@H]1C(=O)NC(C)(C)C)Cc1ccccc1,,,≤0.0057 µM
CC(=O)CC(c1ccc(Cl)cc1)c1c(O)c2cc(C)ccc2oc1=O,,,35 µM
CC(C)(CO)OC(=O)N[C@@H](Cc1ccccc1)[C@@H](O)C[C@@H](Cc1ccc(OCCN2CCOCC2)cc1)C(=O)N[C@H]1c2ccccc2C[C@H]1O,,HPLC,~0.0025 µg/mL
O=c1c(-c2ccc(O)cc2)coc2cc(O)cc(O)c12,,substrate cleavage / fluorescence,360 µg/mL
Cc1cc(-c2ccc(N=Nc3ccc4c(S(=O)(=O)O)cc(S(=O)(=O)O)c(N)c4c3O)c(C)c2)ccc1N=Nc1ccc2c(S(=O)(=O)O)cc(S(=O)(=O)O)c(N)c2c1O,,,0.48 µM
CC(=O)CC(c1ccccc1)c1c(O)c2cc(C)cc(C)c2oc1=O,,,>200 µM
O=c1c(O[C@@H]2O[C@H](CO)[C@@H](O)[C@H](O)[C@H]2O)c(-c2ccc(O)cc2)oc2cc(O)cc(O)c12,,,>200 µg/mL
O=C(O)C1Cc2cc3c(cc2C(O)C1CO)OCO3,,substrate cleavage / HPLC,>50 µM
CC(C)[C@H](NC(=O)c1ccc2ccccc2n1)C(=O)N[C@H](CCN1CC[C@@H](SCc2ccncc2)C[C@H]1C(=O)NC(C)(C)C)Cc1ccccc1,,,≤0.004 µM
O=c1c(-c2ccc(O)cc2)coc2cc(OC3OC(CO)C(O)C(O)C3O)cc(O)c12,,substrate cleavage / fluorescence,360 µg/mL
CCCCCCCCCCCCCCCCCCCCCCC(=O)O[C@@H]1[C@@H](C)[C@@]2(O)[C@@H](C=C(COC(C)=O)C[C@]3(O)C(=O)C(C)=C[C@@H]23)[C@@H]2C(C)(C)[C@]12O,,substrate cleavage / fluorescence,>67.5 µM
CC(C)(C)NC(=O)[C@@H]1C[C@@H]2CCCC[C@@H]2CN1C[C@@H](O)[C@H](Cc1ccccc1)NC(=O)[C@@H](NC(=O)COc1cccnc1)C(C)(C)S(C)(=O)=O,,,0.0005 µM
CC(C)(C)OC(=O)[C@H]1CCON1C1(C)OC(C)(C(O)CO)C2OC(C)(C)OC21,,substrate cleavage / HPLC,>50 µM

5 of the rows above, restated:

CC(=O)CC(c1ccc(Cl)cc1)c1c(O)c2cc(C)ccc2oc1=O ; value: 35 µM
CC(C)[C@H](NC(=O)c1ccc2ccccc2n1)C(=O)N[C@H](CCN1CC[C@@H](SCc2ccccn2)C[C@H]1C(=O)NC(C)(C)C)Cc1ccccc1 ; value: ≤0.0019 µM
O=c1c(-c2ccc(O)cc2)coc2cc(OC3OC(CO)C(O)C(O)C3O)cc(O)c12 ; method: substrate cleavage / fluorescence ; value: 360 µg/mL
CC1(C)CC[C@]2(C(=O)O)CCC3=C(CCC4[C@@]5(C)C[C@H](O)[C@H](O)[C@@](C)(C(=O)O)C5CC[C@@]34C)C2C1 ; method: substrate cleavage / fluorescence ; value: 89 µg/mL
CC(=O)C(Cc1c(O)c2cccc(-c3ccccc3)c2oc1=O)c1ccccc1 ; value: 15 µM

Blank or dashed fields: not listed here. ICn is the concentration giving n% inhibition.